Results of unrelated studies side by side (data: NIAID ChemDB).

Shared fields: toxicity to cultured cells; cell line: C8166; method: MTT; endpoint: CC50

Neighbouring rows are from separate reports.

compound,result
Nc1ccn([C@@H]2O[C@H](CO)C[C@@H]2F)c(=O)n1,>500 µg/mL
O=C(CC1(O)C(=O)Nc2ccccc21)c1cccc(Br)c1,>400 µM
COc1ccc(S(=O)(=O)Nc2cc(Cl)ccc2OCC(=O)Nc2ccc(S(N)(=O)=O)cc2C)cc1,123 µM
CC(=O)[C@]12CCC(C)(C)CC1C1=CCC3[C@@]4(C)CCC(=O)C(C)(C)C4[C@H](O)C[C@@]3(C)[C@]1(C)CC2,27.97 µM
Cc1ccc(S(=O)(=O)Nc2cc(Cl)ccc2OCC(=O)Nc2ccc(S(N)(=O)=O)cc2C)cc1,>382 µM
COc1ccc(Cc2nccc3cc(OC)c(OC)cc23)cc1OC,5 µg/mL
Cc1ccc(-c2c[nH]c(=S)n2NC(=S)Nc2ccc(C)cc2C)cc1,31.69 µM
CC(C)=CCC/C(C)=C/CC/C(C)=C/CC/C(C)=C/Cc1cc(O)cc2c1OC(=O)C2=C(C)C,31.73 µM
COc1ccc(S(=O)(=O)Nc2cc(Cl)ccc2OCC(=O)Nc2ccc(S(N)(=O)=O)cc2)cc1,75.61 µM
CC(C)(C)OC(=O)[C@@H]1CCCN1C[C@H](O)[C@H](Cc1ccccc1)NC(=O)[C@H](CC(N)=O)NC(=O)OCc1ccccc1,>200 µg/mL
Cc1cc(O)cc(O)c1,>200 µM
Cc1cc(S(N)(=O)=O)ccc1NC(=O)COc1ccc(Cl)cc1C(=O)c1cc(Cl)cc(C#N)c1,>386.8 µM
OCCc1ccc(O)c(O[C@@H]2O[C@H](CO)[C@@H](O)[C@H](O)[C@H]2O)c1,52.5 µg/mL
NS(=O)(=O)c1ccc(NC(=O)COc2ccc(Cl)cc2NS(=O)(=O)c2ccc([N+](=O)[O-])cc2)cc1,179 µM
Nc1ccn([C@H]2CC[C@@H](CO)O2)c(=O)n1,>500 µg/mL
Cc1cc(C)cc(S(=O)(=O)c2c(C(N)=O)[nH]c3ccc(Cl)cc23)c1,14 µM
O=C(CC1(O)C(=O)Nc2ccc(Cl)cc21)c1ccc(Cl)c(Cl)c1,119 µM
Cc1ccc(-c2c[nH]c(=S)n2NC(=S)Nc2ccc(Br)cc2)cc1,117 µM
O=C(CC1(O)C(=O)Nc2ccc(Cl)cc21)c1cccc(Br)c1,147 µM
COC(=O)C1=C[C@H](O)[C@@H](O)[C@H](O)C1,>200 µM
O=C(CC1(O)C(=O)Nc2ccc(Br)cc21)c1ccc(F)cc1,>400 µM
NS(=O)(=O)c1ccc(NC(=O)COc2ccc(Cl)cc2NS(=O)(=O)c2ccccc2)cc1,153 µM
Cc1ccccc1NC(=S)Nn1c(-c2ccc(-c3ccccc3)cc2)c[nH]c1=S,65.78 µM
C[C@@H]1O[C@@H](O[C@@H]2[C@@H](O)[C@H](OCCc3ccc(O)c(O)c3)O[C@H](CO)[C@H]2OC(=O)/C=C/c2ccc(O)c(O)c2)[C@H](O)[C@H](O)[C@H]1O,154.8 µg/mL
Cc1cc(S(N)(=O)=O)ccc1NC(=O)COc1ccc(Cl)cc1NS(=O)(=O)c1ccc(Cl)cc1,168 µM
C=C(C)[C@@H]1CC[C@]2(CCO)CC[C@]3(C)C(CCC4[C@@]5(C)CC/C(=C\O)C(C)(C)C5CC[C@]43C)C12,139 µM
Cc1cccc(C(=O)CC2(O)C(=O)Nc3ccccc32)c1,>400 µM
S=C(Nc1ccc(Cl)cc1)Nn1c(-c2ccc(Br)cc2)c[nH]c1=S,80 µM
COc1ccccc1C(=O)CC1(O)C(=O)Nc2ccccc21,>400 µM
O=c1ccn([C@H]2CC[C@@H](CO)O2)c(=O)[nH]1,>500 µg/mL
O=C(CO)CCC(=O)OCCc1ccc2c(c1)OCO2,116.5 µg/mL
COc1cccc(C(=O)CC2(O)C(=O)Nc3ccc(Cl)cc32)c1,>400 µM
OCCc1ccc(O[C@@H]2O[C@H](CO)[C@@H](O)[C@H](O)[C@H]2O)c(O)c1,243.8 µg/mL
Cc1cccc(C(=O)CC2(O)C(=O)Nc3ccc(Br)cc32)c1,>400 µM

Repeating the final 4 entries:

O=C(CO)CCC(=O)OCCc1ccc2c(c1)OCO2 ; result: 116.5 µg/mL
COc1cccc(C(=O)CC2(O)C(=O)Nc3ccc(Cl)cc32)c1 ; result: >400 µM
OCCc1ccc(O[C@@H]2O[C@H](CO)[C@@H](O)[C@H](O)[C@H]2O)c(O)c1 ; result: 243.8 µg/mL
Cc1cccc(C(=O)CC2(O)C(=O)Nc3ccc(Br)cc32)c1 ; result: >400 µM

CCn is the concentration with n% toxicity to the cells.